Reference: PMC6534853
No signal at the amounts used counts as a negative. For at least one entry, the source does not settle the construct or the ends of the probe.

System: CpxR-P (phosphorylated CpxR)
Experiment: EMSA
Conditions: acetyl phosphate-phosphorylated CpxR, 5 mM Mg2+, 0.1 mM Mn2+, 10 mM Tris (pH not stated), 50 mM KCl, 5 mM MgCl2, 1 mM DTT, 0.1 mM MnCl2, 2.5% glycerol, 50 ng/uL poly[dI-dC], 40 ng probe, 30 min, room temperature, recombinant protein, residues 1-232, protein details: His (pET28a), label: biotin, probe letters rebuilt from the primers and the genome

| Sequence | binding result (abolished by excess unlabeled N1) | binding result |
| --- | --- | --- |
| AGCTTATGTAATCGTGTTCTGAAATTGACTAAAAATATATTTAAACACCATAAAAGAGTTTTTCGGTAGGTGCTAATTACGTGTGCCTGTAACTCGAATAAAGAAAAGGGTGTGGTTCCTGATGTGAGCCGCATCACACTCTAACCTGTCGGGGATTAACGACGGGTTGTTCGTAAAACAGCAGTTGATAATTTCACAAGGAGTTCATAAATGCCAACCCCATG (double strand) [hcp2B promoter fragment with CpxR site] | binds |  |
| CATGGGGTTGGCATTTATGAACTCCTTGTGAAATTATCAACTGCTGTTTTACGAACAACCCGTCGTTAATCCCCGACAGGTTAGAGTGTGATGCGGCTCACATCAGGAACCACACCCTTTTCTTTATTCGAGTTACAGGCACACGTAATTAGCACCTACCGAAAAACTCTTTTATGGTGTTTAAATATATTTTTAGTCAA (double strand) [hcp2B promoter fragment without CpxR site] |  | no binding |
